The values that follow are results of earlier work, collected in patent publication US4925831A, “Aminoalkyl naphthalenediols as host resistance enhancers against viral infection” (priority 1987, dated 1990).

This data set deals with AIDS or ARC patients. The settings on record: result in words.

As for “recombinant IL-2: Protein made by white blood cells”, the clinical efficacy result is reported as “not encouraging”.
